Compound potency records, mixed from different reports. Data source: NIAID ChemDB in PubChem.

All rows: growth or infection tests; organism: Aspergillus fumigatus; measure: Geometric mean MIC

Rows are shuffled and stem from different studies.

structure	strain or isolate	value
COc1cc(O)c2c(c1)C(=O)c1c(cc3c(c1O)-c1c(cc(C)c(C(=O)NC(CO)C(=O)O)c1O)[C@H](OC1OC(C)C(O)C(OC4OCC(O)C(O)C4O)C1O)C3O)C2=O	35 strains	7.99 µg/mL
O=C(NCc1ccc(F)cc1)c1ccccc1O	231	392.1 µM
C[C@H]1[C@H](O)[C@@H](C)/C=C/C=C/C=C/C=C/C=C/C=C/C=C/[C@H](O[C@@H]2O[C@H](C)[C@@H](O)[C@H](N)[C@@H]2O)C[C@@H]2O[C@](O)(C[C@@H](O)C[C@@H](O)CC[C@H](O)[C@@H](O)C[C@@H](O)CC(=O)O[C@H]1C)C[C@H](O)[C@H]2C(=O)O	35 isolates	0.87 µg/mL
C[C@H]1[C@H](O)[C@@H](C)/C=C/C=C/C=C/C=C/C=C/C=C/C=C/[C@H](O[C@@H]2O[C@H](C)[C@@H](O)[C@H](N)[C@@H]2O)C[C@@H]2O[C@](O)(C[C@@H](O)C[C@@H](O)CC[C@H](O)[C@@H](O)C[C@@H](O)CC(=O)O[C@H]1C)C[C@H](O)[C@H]2C(=O)O	94 isolates	0.95 µg/mL
CCC(C)n1ncn(-c2ccc(N3CCN(c4ccc(OC[C@H]5CO[C@](Cn6cncn6)(c6ccc(Cl)cc6Cl)O5)cc4)CC3)cc2)c1=O	6 strains	0.0312 µg/mL
CCC(C)n1ncn(-c2ccc(N3CCN(c4ccc(OC[C@H]5CO[C@](Cn6cncn6)(c6ccc(Cl)cc6Cl)O5)cc4)CC3)cc2)c1=O	17 isolates	0.121 µg/mL
CCC(C)n1ncn(-c2ccc(N3CCN(c4ccc(OC[C@H]5CO[C@](Cn6cncn6)(c6ccc(Cl)cc6Cl)O5)cc4)CC3)cc2)c1=O	50 isolates	0.77 µg/mL
C[C@H]1[C@H](O)[C@@H](C)/C=C/C=C/C=C/C=C/C=C/C=C/C=C/[C@H](O[C@@H]2O[C@H](C)[C@@H](O)[C@H](N)[C@@H]2O)C[C@@H]2O[C@](O)(C[C@@H](O)C[C@@H](O)CC[C@H](O)[C@@H](O)C[C@@H](O)CC(=O)O[C@H]1C)C[C@H](O)[C@H]2C(=O)O	17 strains	1.7 µg/mL
Nc1[nH]c(=O)ncc1F	17 isolates	18.8 µg/mL
C[C@@H](c1ncncc1F)[C@](O)(Cn1cncn1)c1ccc(F)cc1F	62 isolates	0.334 µg/mL
CC[C@@H]([C@H](C)O)n1ncn(-c2ccc(N3CCN(c4ccc(OC[C@@H]5CO[C@@](Cn6cncn6)(c6ccc(F)cc6F)C5)cc4)CC3)cc2)c1=O	17 strains	0.09 µg/mL
C[C@@H](c1ncncc1F)[C@](O)(Cn1cncn1)c1ccc(F)cc1F	3 isolates	0.63 µg/mL
CCC(C)n1ncn(-c2ccc(N3CCN(c4ccc(OC[C@H]5CO[C@](Cn6cncn6)(c6ccc(Cl)cc6Cl)O5)cc4)CC3)cc2)c1=O	35 isolates	0.31 µg/mL
CCC(C)CC(C)CCCCCCCCC(=O)N[C@H]1C[C@@H](O)[C@H](NCCN)NC(=O)[C@@H]2[C@@H](O)CCN2C(=O)[C@H]([C@H](O)CCN)NC(=O)[C@H]([C@H](O)[C@@H](O)c2ccc(O)cc2)NC(=O)[C@@H]2C[C@@H](O)CN2C(=O)[C@H]([C@@H](C)O)NC1=O	28 isolates	0.08 µg/mL

2 of the rows above, restated:

{"structure": "C[C@H]1[C@H](O)[C@@H](C)/C=C/C=C/C=C/C=C/C=C/C=C/C=C/[C@H](O[C@@H]2O[C@H](C)[C@@H](O)[C@H](N)[C@@H]2O)C[C@@H]2O[C@](O)(C[C@@H](O)C[C@@H](O)CC[C@H](O)[C@@H](O)C[C@@H](O)CC(=O)O[C@H]1C)C[C@H](O)[C@H]2C(=O)O", "strain or isolate": "35 isolates", "value": "0.87 µg/mL"}
{"structure": "C[C@H]1[C@H](O)[C@@H](C)/C=C/C=C/C=C/C=C/C=C/C=C/C=C/[C@H](O[C@@H]2O[C@H](C)[C@@H](O)[C@H](N)[C@@H]2O)C[C@@H]2O[C@](O)(C[C@@H](O)C[C@@H](O)CC[C@H](O)[C@@H](O)C[C@@H](O)CC(=O)O[C@H]1C)C[C@H](O)[C@H]2C(=O)O", "strain or isolate": "94 isolates", "value": "0.95 µg/mL"}